{"sequences": {"note": "Protein sequences, listed by entry. Tags and fused reporters are not part of them. Residues count along the entry.", "UniProt P05364, 21-381 limits assumed": "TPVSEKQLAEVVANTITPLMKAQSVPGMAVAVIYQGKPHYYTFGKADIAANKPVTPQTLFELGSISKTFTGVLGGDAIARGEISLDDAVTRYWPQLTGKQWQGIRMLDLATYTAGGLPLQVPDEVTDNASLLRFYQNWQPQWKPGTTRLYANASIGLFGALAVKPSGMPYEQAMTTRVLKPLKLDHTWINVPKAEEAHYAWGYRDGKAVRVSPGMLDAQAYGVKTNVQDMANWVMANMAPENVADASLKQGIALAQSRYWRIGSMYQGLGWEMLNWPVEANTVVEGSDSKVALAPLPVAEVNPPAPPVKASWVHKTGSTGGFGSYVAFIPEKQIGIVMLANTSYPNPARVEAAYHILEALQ"}, "source": "patent US20030235877A1", "about": "“Conjugates of haptens to beta-lactam derivatives and their use for detecting and/or quantifying haptens in solution and device for implementation thereof” (priority 1996, published 2003)"}
{"biological_target": "β-lactamase of Enterobacter cloacae P99 (Enterobacter cloacae, UniProt P05364)", "assay": "Ki of conjugates, calculated using the β-lactamase of Enterobacter cloacae P99", "assay_type": "biochemical", "source_text": "The particular mode of conjugation claimed in the present invention guarantees to maintain kinetic parameters (Km, Ki, kcat and Ka=k2/K, where Km is the enzyme Michaelis-Menten constant, Ki is the inhibitor-enzyme complex dissociation constant, kcat the catalytic constant and Ka the apparent second-order rate constant for acyl enzyme formation respectively) toward β-lactamases and penicillin detectors, which are essentially the same as those of common penicillins.\n^x(Column 9): calculated using the β-lactamase of Enterobacter cloacae P99", "units": {"Ki": "nM"}}
{"smiles": "CC(=O)C1CCC2C3CCC4=CC(=O)CCC4(C)C3C(OCCC(=O)Nc3ccc(-c4noc(C)c4C(=O)NC4C(=O)N5C4SC(C)(C)C5C(=O)O)cc3)CC12C", "note": "(stereo not shown)", "Ki": 25}
{"smiles": "COC(=O)C1C(OC(=O)c2ccc(CNC(=O)C(C(=O)NC3C(=O)N4C3SC(C)(C)C4C(=O)O)c3ccccc3)cc2)CC2CCC1N2C", "note": "(stereo not shown)", "Ki": 84}
{"smiles": "Cc1onc(-c2ccc(OCCC(=O)NCCCCC(=O)OC3CCC4C5CCC6=CC(=O)CCC6(C)C5CCC34C)cc2)c1C(=O)NC1C(=O)N2C1SC(C)(C)C2C(=O)O", "note": "(stereo not shown)", "Ki": 23}
{"smiles": "Cc1onc(-c2ccc(OCCC(=O)NCCCCC(=O)OC3CCC4C5CCC6=CC(=O)CCC6C5CCC34C)cc2)c1C(=O)NC1C(=O)N2C1SC(C)(C)C2C(=O)O", "note": "(stereo not shown)", "Ki": 29}
